{
  "source": "patent US20070059272A1",
  "about": "(priority 2005, published 2007)",
  "tested_on": "PCN production in PAO1 mutant strains",
  "assay": "Pyocyanin assay in PAO1 mutant, complemented and MvfR-truncated strains",
  "format": "cell-based, Pseudomonas aeruginosa",
  "key": {"[1]": {"conditions": "overnight, 1 mM U-50,488 or 100 μM C4-HSL"}},
  "data": [
    {"substance": "trans-3,4-dichloro-N-methyl-N[2-(1-pyrolidinyl)cyclohexyl]benzeneacetamide methanesulfonate", "values": [
      {"measurement": "PCN production in mutants defective in lasR, lasI, rhlI, rhlR", "value": "did not restore PCN production"},
      {"measurement": "PCN production in ΔGacA and ΔMvfR", "value": "could not restore PCN production"},
      {"measurement": "PCN production in ΔPhzA1", "value": "produced no PCN"},
      {"measurement": "dynamics of PCN production in ΔGacA/gacA", "setting": "200 μM compound", "value": "delayed PCN production"},
      {"measurement": "dynamics of PCN production in ΔMvfR/mvfR", "setting": "200 μM compound", "value": "shift in PCN production at lower cell densities"},
      {"measurement": "PCN response of MvfR truncation mutant 121-332", "setting": "defective in the DNA-binding domain", "value": "did not respond"},
      {"measurement": "PCN production in ΔPhnA and ΔPqsA", "setting": "much less than wild-type PAO1", "value": "slight increase in PCN production"},
      {"measurement": "PCN production in ΔGacA/gacA", "setting": "[1]", "value": "decreased, albeit minimally"},
      {"measurement": "PCN production in ΔMvfR/mvfR", "setting": "[1]", "value": "further increased"},
      {"measurement": "PCN response of MvfR truncation mutants 1-292, 1-291 and 1-283", "setting": "substrate binding domain affected", "value": "did not respond"},
      {"measurement": "PCN response of MvfR truncation mutants 1-299 and 1-293", "setting": "substrate binding domain not affected", "value": "enhanced PCN production"}
    ]}
  ]
}
